Reference: PMC4891693, “Discovery of prenylated flavonoids with dual activity against influenza virus and Streptococcus pneumoniae” (Scientific Reports, 2016)
Where two headings read alike, the source gives them in different places.

What was measured:
[1] = test system: human erythrocytes; test: Interference with hemagglutination in the viral HA assay
[2] = test system: human erythrocytes
[3] = pure compounds, human erythrocytes, 2 h at 4 °C

| Molecule | sample concentrations provoking induction of hemagglutination in viral HA assay [1] | sample concentrations provoking induction of hemagglutination in bacterial HA assay [2] | sample concentrations provoking induction of hemagglutination in viral HA assay [1, 3] |
| --- | --- | --- | --- |
| COc1cc(C2CC(=O)c3c(O)cc(O)cc3O2)ccc1O (racemic) [Compound 9, (±)-homoeriodictyol] | no | no | – |
| COc1ccc(C2CC(=O)c3c(O)cc(O)cc3O2)cc1O (racemic) [Compound 10, (±)-hesperetin] | no | no | – |
| O=C1CC(c2ccc(O)c(O)c2)Oc2cc(O)cc(O)c21 (racemic) [Compound 11, (±)-eriodictyol] | no | no | – |
| COc1cc([C@H]2Oc3cc([C@H]4Oc5cc(O)cc(O)c5C(=O)[C@@H]4O)ccc3O[C@@H]2CO)ccc1O (racemic) [Compound 17, (±)-silybin] | – | no | 100 µM |
| CC(C)=CCc1cc(C2CC(=O)c3ccc(O)cc3O2)ccc1O (racemic) [Compound 18, (±)-abyssinone II] | no | no | – |
| CC(C)=CCC/C(C)=C/Cc1c(O)cc(O)c2c1OC(c1ccccc1)CC2=O (racemic) [Compound 24, (R,S)-8-geranyl-5,7-dihydroxyflavanone] | no | no | – |
| CC(C)=CCc1c(O)cc(O)c2c1O[C@@H](c1ccc(O)cc1)[C@H](O)C2=O (relative stereo) [Compound 23, (2R,3R)-rel-4H-2,3-dihydro-3,5,7-trihydroxy-2-(4-hydroxyphenyl)-8-(3-methyl-2-buten-1-yl)-1-benzopyran-4-one] | no | no | – |
| CC(C)=CCC12Oc3cc(O)c(C4=CC5(C)CC(C4)c4ccc(O)cc4O5)c(O)c3C(=O)C1(O)Oc1cc(O)ccc12 (stereo not drawn) [Compound 1, sanggenon B] | 100 or no | no | – |
| CC(C)=CC[C@]12Oc3cc(O)c([C@H]4C=C(C)C[C@H](c5ccc(O)cc5O)[C@H]4C(=O)c4ccc(O)cc4O)c(O)c3C(=O)[C@@]1(O)Oc1cc(O)ccc12 [Compound 2, sanggenon C] | no | no | – |
| CC(C)=CCC/C(C)=C/Cc1c(O)ccc([C@@H]2CC(=O)c3c(O)cc(O)cc3O2)c1O [Compound 5, sanggenol A] | no | no | – |
| CC1=C[C@H](c2c(O)ccc([C@@H]3CC(=O)c4c(O)cc(O)cc4O3)c2O)[C@@H](C(=O)c2ccc(O)cc2O)[C@H](c2ccc(O)cc2O)C1 [Compound 6, kuwanon L] | no | no | – |
| COc1c(O)cc2c(c1O)C(=O)CC(c1ccccc1)O2 (stereo not drawn) [Compound 8, 2,3-dihydro-5,7-dihydroxy-6-methoxy-2-phenyl-4H-1-benzopyran-4-one] | – | no | no |
| O=C1CC(c2ccc(O)cc2O)Oc2cc(O)cc(O)c21 (stereo not drawn) [Compound 12, 2',4',5,7-tetrahydroxyflavanone] | 10 to 100 µM | no | – |
| O=C1c2c(O)cc(O)cc2OC(c2c(O)cccc2O)C1O (stereo not drawn) [Compound 13, 3,5,7,2',6'-pentahydroxyflavanone] | no | no | – |
| O=c1cc(-c2ccc(O)c(O)c2O)oc2cc(O)cc(O)c12 [Compound 14, 2',3',4',5,7-pentahydroxyflavone] | 10 to 100 µM | no | – |
| O=c1cc(-c2ccc(O)c(O)c2)oc2cc(O)cc(O)c12 [Compound 15, luteolin] | 3.16 to 100 µM | no | – |
| O=c1c(O)c(-c2ccc(O)cc2O)oc2cc(O)cc(O)c12 [Compound 16, morin] | no | 100 µM | – |

| Molecule | sample concentrations provoking induction of hemagglutination in viral HA assay [1] | sample concentrations provoking induction of hemagglutination in bacterial HA assay [2] | sample concentrations provoking induction of hemagglutination in viral HA assay [1, 3] |
| --- | --- | --- | --- |
| COc1ccc(C2CC(=O)c3c(cc(O)c(CC=C(C)C)c3O)O2)cc1 (stereo not drawn) [Compound 19] | 100 µM | no | – |
| CC(C)=CCc1cc(C2CC(=O)c3c(O)cc(O)cc3O2)ccc1O (stereo not drawn) [Compound 20, 4',5,7-trihydroxy-3'-prenylflavanone] | no | no | – |
| COc1cc(C2CC(=O)c3c(O)cc(O)cc3O2)cc(CC=C(C)C)c1O (stereo not drawn) [Compound 21, 2,3-dihydro-5,7-dihydroxy-2-[4-hydroxy-3-methoxy-5-(3-methyl-2-butenyl)phenyl]-4H-1-benzopyran-4-one] | no | no | – |
| COc1cc(C2CC(=O)c3c(cc(O)c(CC=C(C)C)c3O)O2)ccc1O (stereo not drawn) [Compound 22, 2,3-dihydro-5,7-dihydroxy-2-(4-hydroxy-3-methoxyphenyl)-6-(3-methyl-2-buten-1-yl)-4H-1-benzopyran-4-one] | no | no | – |
| CC(C)=CCC/C(C)=C/Cc1c(O)cc2c(c1O)C(=O)CC(c1ccc(O)c(O)c1)O2 (stereo not drawn) [Compound 25] | no | no | – |
| CC(C)=CCC/C(C)=C/Cc1c(O)cc2c(c1O)C(=O)[C@H](O)[C@@H](c1ccc(O)cc1)O2 [Compound 26, bonanniol A] | 31.6 to 100 µM | no | – |
| COc1c(CC=C(C)C)cc([C@@H]2CC(=O)c3c(O)cc(O)cc3O2)cc1CC=C(C)C [Compound 27, abyssinone-V 4'-methyl ether] | 10 to 100 µM | no | – |
| CC(C)=CCc1c(O)c(CC=C(C)C)c2c(c1O)C(=O)C[C@@H](c1ccc(O)cc1)O2 [Compound 28, 6,8-diprenylnaringenin] | no | no | – |
| CC(C)=CCc1c(O)c(CC=C(C)C)c2c(c1O)C(=O)CC(c1cc(O)cc(O)c1)O2 (stereo not drawn) [Compound 29, 2-(3,5-dihydroxyphenyl)-2,3-dihydro-5,7-dihydroxy-6,8-bis(3-methyl-2-buten-1-yl)-4H-1-benzopyran-4-one] | no | no | – |
| CC(C)=CCc1c(O)c(CC=C(C)C)c2occ(-c3ccc(O)cc3)c(=O)c2c1O [Compound 30, 6,8-diprenylgenistein] | 100 or no | no | – |
| CC(C)=CCc1c(O)c(CC=C(C)C)c2occ(-c3ccc(O)c(O)c3)c(=O)c2c1O [Compound 31, 6,8-diprenylorobol] | no | no | – |
| CC(C)=CCc1c(O)c(CC=C(C)C)c2c(c1O)C(=O)C(c1ccc(O)cc1O)CO2 (stereo not drawn) [Compound 32, orientanol E] | no | no | – |
| CC(C)=CCc1c(O)cc(CCc2ccccc2)c(CC=C(C)C)c1O [Compound 33, 2,4-bis(3-methyl-2-buten-1-yl)-5-(2-phenylethyl)-1,3-benzenediol] | 100 µM | no | – |
| CC(C)=CCc1c(O)c(CC=C(C)C)c2[nH]c3c(O)cccc3c(=O)c2c1O [Compound 34, atalphylline] | 10 to 100 µM | no | – |
| sanggenon D [Compound 3] | – | no | no |
| sanggenon G [Compound 4] | – | no | no |
